A mixed list of measured activities; the numbers were collected in NIAID ChemDB.

All rows: whole-cell or culture tests; agent: Enterococcus faecium; measure: MIC

Neighbouring rows are from separate reports.

smiles	strain or isolate	result
CN(C)[C@@H]1C(=O)C(C(N)=O)=C(O)[C@@]2(O)C(=O)C3=C(O)c4c(O)ccc(-c5ccoc5)c4C[C@H]3C[C@@H]12	494 (vancomycin-resistant)	1 µg/mL
CNc1c(F)cc2c(=O)c(C(=O)O)cn(-c3cc(N)c(F)cc3F)c2c1C	W1418	32 µg/mL
O=C(/C=C/c1ccc(F)cc1)NC[C@H]1CN(c2ccc(N3CCOCC3)c(F)c2)C(=O)O1	UC12712 (vancomycin-resistant)	4 µg/mL
CN(C)c1cc(CNCc2ccccc2)c(O)c2c1C[C@H]1C[C@H]3[C@H](N(C)C)C(=O)C(C(N)=O)=C(O)[C@@]3(O)C(=O)C1=C2O	494 (vancomycin-resistant)	1 µg/mL
O=C(/C=C/c1ccncc1)NC[C@H]1CN(c2ccc(N3CCOCC3)c(F)c2)C(=O)O1	UC12712 (vancomycin-resistant)	16 µg/mL
CC(=O)NC[C@H]1CN(c2ccc(OC3CCN(C(=O)COCc4ccccc4)CC3)c(F)c2)C(=O)O1	OC3312 vancomycin-resistant	4 µg/mL
CC(=O)NC[C@H]1CN(c2ccc(NC(=O)c3ccccn3)c(F)c2)C(=O)O1	UC12712 (vancomycin-resistant)	16 µg/mL
CSc1ccc(NC(=O)c2ccc(N3C[C@H](CNC(C)=O)OC3=O)cc2F)cn1	UC12712 (vancomycin-resistant)	4 µg/mL
CC(=O)NC[C@H]1CN(c2ccc(NC(=O)CO)c(F)c2)C(=O)O1	UC12712 (vancomycin-resistant)	16 µg/mL
CC(=O)NC[C@H]1CN(c2ccc(OC3CCN(C(=O)COCc4ccccc4)CC3)nc2)C(=O)O1	OC3312 vancomycin-resistant	128 µg/mL
CC(=O)NC[C@H]1CN(c2ccc(C(=O)Nc3ccc(Cl)nc3)c(F)c2)C(=O)O1	UC12712 (vancomycin-resistant)	2 µg/mL
CC(=O)NC[C@H]1CN(c2ccc(NC(=O)c3cnccn3)c(F)c2)C(=O)O1	UC12712 (vancomycin-resistant)	8 µg/mL
CC(=O)NC[C@H]1CN(c2ccc(C(=O)Nc3ncc[nH]3)c(F)c2)C(=O)O1	UC12712 (vancomycin-resistant)	4 µg/mL
CSc1ccc(C(=O)Nc2ccc(N3C[C@H](CNC(C)=O)OC3=O)cc2F)o1	UC12712 (vancomycin-resistant)	16 µg/mL
Cc1c(NCCCO)c(F)cc2c(=O)c(C(=O)O)cn(-c3cc(N)c(F)cc3F)c12	ATCC51519	8 µg/mL
CN(C)[C@@H]1C(=O)C(C(N)=O)=C(O)[C@@]2(O)C(=O)C3=C(O)c4c(O)ccc(-c5ccc(F)cc5)c4C[C@H]3C[C@@H]12	494 (vancomycin-resistant)	0.5 µg/mL
CSCC(=O)NC[C@H]1CN(c2ccc(N3CCOCC3)c(F)c2)C(=O)O1	UC12712 (vancomycin-resistant)	32 µg/mL
CCN(CC)CCSc1ccc(N2C[C@H](CNC(C)=O)OC2=O)cc1F	UC12712 (vancomycin-resistant)	>64 µg/mL
CC(=O)NC[C@H]1CN(c2ccc(NC(=O)c3ccc(F)o3)c(F)c2)C(=O)O1	UC12712 (vancomycin-resistant)	16 µg/mL
O=C(/C=C/c1ccc(Cl)cc1Cl)NC[C@H]1CN(c2ccc(N3CCOCC3)c(F)c2)C(=O)O1	UC12712 (vancomycin-resistant)	4 µg/mL
O=C(NCCO)NNC(=O)Nc1cc(C(F)(F)F)cc(C(F)(F)F)c1	EF12 (vancomycin-resistant)	>300 µM
CC(=O)NC[C@H]1CN(c2ccc(NC(=O)c3ccc(/C=C/[N+](=O)[O-])o3)c(F)c2)C(=O)O1	UC12712 (vancomycin-resistant)	16 µg/mL
O=C(/C=C/c1ccc([N+](=O)[O-])cc1)NC[C@H]1CN(c2ccc(N3CCOCC3)c(F)c2)C(=O)O1	UC12712 (vancomycin-resistant)	8 µg/mL
CC(=O)NC[C@H]1CN(c2ccc(C(=O)NO)c(F)c2)C(=O)O1	UC12712 (vancomycin-resistant)	16 µg/mL
O=C(NNC(=O)NC1CCCCC1)Nc1cc(C(F)(F)F)cc(C(F)(F)F)c1	EF12 (vancomycin-resistant)	200 µM
CC(=O)NC[C@H]1CN(c2ccc(C(=O)N(C)C)c(F)c2)C(=O)O1	UC12712 (vancomycin-resistant)	16 µg/mL
O=C(Nc1cccc(C2=NCCN2)c1)Nc1cccc(C(F)(F)F)c1	EF12 (vancomycin-resistant)	106 µM
CN(C)[C@@H]1C(=O)C(C(N)=O)=C(O)[C@@]2(O)C(=O)C3=C(O)c4c(O)ccc(-c5ccc6c(c5)OCO6)c4C[C@H]3C[C@@H]12	494 (vancomycin-resistant)	0.5 µg/mL
O=C(CC(=O)Nc1cc(C(F)(F)F)cc(C(F)(F)F)c1)Nc1cccc(C2=NCCN2)c1	EF12 (vancomycin-resistant)	212 µM
CC(=O)NC[C@H]1CN(c2ccc(C(=O)Nc3ccncc3)c(F)c2)C(=O)O1	UC12712 (vancomycin-resistant)	8 µg/mL
CC(=O)NC[C@H]1CN(c2ccc3c(c2)OCc2nccn2-3)C(=O)O1	27266	1 µg/mL
CC(=O)NC[C@H]1CN(c2ccc(SCCN3CCOCC3)c(F)c2)C(=O)O1	UC12712 (vancomycin-resistant)	64 µg/mL
O=C(NNC(=O)Nc1cc(C(F)(F)F)cc(C(F)(F)F)c1)Nc1ccccc1	EF12 (vancomycin-resistant)	>200 µM
CCOC(=O)C(C)(C)Sc1ccc(N2C[C@H](CNC(C)=O)OC2=O)cc1F	UC12712 (vancomycin-resistant)	16 µg/mL
O=C(NNC(=O)Nc1ccccc1C(F)(F)F)Nc1cc(C(F)(F)F)cc(C(F)(F)F)c1	EF12 (vancomycin-resistant)	>300 µM
Cc1c(N)c(F)cc2c(=O)c(C(=O)O)cn(-c3cc(N)c(F)cc3F)c12	W1140	4 µg/mL
COCCSc1ccc(N2C[C@H](CNC(C)=O)OC2=O)cc1F	UC12712 (vancomycin-resistant)	16 µg/mL

Again, the opening 5 rows:

smiles,strain or isolate,result
CN(C)[C@@H]1C(=O)C(C(N)=O)=C(O)[C@@]2(O)C(=O)C3=C(O)c4c(O)ccc(-c5ccoc5)c4C[C@H]3C[C@@H]12,494 (vancomycin-resistant),1 µg/mL
CNc1c(F)cc2c(=O)c(C(=O)O)cn(-c3cc(N)c(F)cc3F)c2c1C,W1418,32 µg/mL
O=C(/C=C/c1ccc(F)cc1)NC[C@H]1CN(c2ccc(N3CCOCC3)c(F)c2)C(=O)O1,UC12712 (vancomycin-resistant),4 µg/mL
CN(C)c1cc(CNCc2ccccc2)c(O)c2c1C[C@H]1C[C@H]3[C@H](N(C)C)C(=O)C(C(N)=O)=C(O)[C@@]3(O)C(=O)C1=C2O,494 (vancomycin-resistant),1 µg/mL
O=C(/C=C/c1ccncc1)NC[C@H]1CN(c2ccc(N3CCOCC3)c(F)c2)C(=O)O1,UC12712 (vancomycin-resistant),16 µg/mL